Assay results from patent US20140120113A1.

What was measured:
[1] = molecular target: HA of influenza virus A/Mallard/Astrakhan/263/1982 (H14) (Influenza A virus A/mallard/Astrakhan/263/1982 (H14N5)); assay: cell-based or functional assay
[2] = molecular target: HA of influenza virus A/New York/107/2003 (H7) (Influenza A virus A/New York/107/2003 (H7N7)); assay: cell-based or functional assay

How did the geomean IC50, virus neutralization assay (VNA) [1] turn out when CR9114 was run?
Its geomean IC50, virus neutralization assay (VNA) is over 100 µg/mL.

What about the geomean IC50, virus neutralization assay (VNA) [2] of the same substance?
The geomean IC50, virus neutralization assay (VNA) was over 100 µg/mL.
